The results in this text go back to paper PMC12841663, “Antiprotozoal Potential of Cultivated Geranium macrorrhizum Against Giardia duodenalis, Trichomonas gallinae and Leishmania infantum” (International Journal of Molecular Sciences, 2026).

One data set has as its system T. gallinae trophozoites. Briefly: Anti-Trichomonas activity assay (MTT viability). The conditions noted are these: Selectivity index (CC50 Vero/IC50). The data set is classed as cell-based, Trichomonas gallinae. The protocol: The anti-Trichomonas (AT) activity assay utilized T. gallinae trophozoites from an isolate obtained from a wood pigeon by Dr. […] EOs and pure compounds were solved in DMSO (Sigma, Madrid, Spain) (<1% final concentration). […] Trophozoites/promastigotes viability was assessed using the modified MTT colorimetric assay, as described previously in the literature, with results further validated by microscopic examination. The plate was analyzed in a spectrophotometer at a wavelength of 570 nm. The percentage of antiparasitic activity was calculated as growth inhibition, using the following formula: % AT = 100 - [(Ap - Ab) ÷ (Ac - Ab)] × 100, where Ap is the absorbance of the tested product, Ab the absorbance of the blank and Ac the absorbance of the control wells (culture without treatment). […] Metronidazole (Acros Organics, Madrid, Spain) served as a reference compound for anti-Giardia activity and Anti-Trichomonas activity and amphotericin B for anti-Leishmania activity. Data was analyzed using STATGRAPHICS Centurion XIX ([…].com) (Statgraphics Technologies, Inc., The Plains, VA, USA). The mammalian cells and trophozoites viability were tested with each compound in a dose-response experiment to calculate their relative potency (CC50 or IC50 value, respectively).

In data set [1] the test system is G. duodenalis trophozoites. Briefly: Anti-Giardia activity assay (MTT viability). To be noted: Selectivity index (CC50 Vero/IC50). The data set is classed as cell-based, Giardia duodenalis. The protocol:
Anti-Giardia (AG) activity assays were conducted on G. duodenalis trophozoites from the ATCC® 30957 strain (assemblage A), using flat-bottom microwell plates in quadruplicate. […] Incubation was carried out for 24 h at 37 °C. EOs and pure compounds were solved in DMSO (Sigma, Madrid, Spain) (<1% final concentration). […] Trophozoites/promastigotes viability was assessed using the modified MTT colorimetric assay, as described previously in the literature, with results further validated by microscopic examination. The plate was analyzed in a spectrophotometer at a wavelength of 570 nm. The percentage of antiparasitic activity was calculated as growth inhibition, using the following formula: % AT = 100 - [(Ap - Ab) ÷ (Ac - Ab)] × 100, where Ap is the absorbance of the tested product, Ab the absorbance of the blank and Ac the absorbance of the control wells (culture without treatment). […] Metronidazole (Acros Organics, Madrid, Spain) served as a reference compound for anti-Giardia activity and Anti-Trichomonas activity and amphotericin B for anti-Leishmania activity. Data was analyzed using STATGRAPHICS Centurion XIX ([…].com) (Statgraphics Technologies, Inc., The Plains, VA, USA). The mammalian cells and trophozoites viability were tested with each compound in a dose-response experiment to calculate their relative potency (CC50 or IC50 value, respectively).

For `CC(C)=C1CC(=O)[C@]2(C)CC[C@H]2[C@@H](C)CC1=O` [Compound 3], in the data set on T. gallinae trophozoites, the “T. gallinae SI” value amounted to 1.0. The “G. duodenalis SI” value in data set [1] is on record as 1.

With `C/C1=C\CC2(OC2(C)C)C(=O)C/C(C)=C/CC1` (stereo not drawn) [Compound 4], the “T. gallinae SI” value with T. gallinae trophozoites amounted to 1.9. In data set [1], the “G. duodenalis SI” value is on record as 1.

On to `C=C[C@]1(C)CC(=O)C(=C(C)C)C[C@H]1C(=C)C` [Compound 1, β-elemenone], for which the “G. duodenalis SI” value in data set [1] was 1.

As for `CC(C)=C1C/C=C(\C)CC/C=C(\C)CC1=O` [Compound 2, germacrone], in the data set with T. gallinae trophozoites, the “T. gallinae SI” value worked out at 2.2. For the same compound, in data set [1], the “G. duodenalis SI” value was determined as 1.8.

`Cc1ncc([N+](=O)[O-])n1CCO` [Met, metronidazole, reference compound]: in the data set with T. gallinae trophozoites, the “T. gallinae SI” value stood at 100. In addition, in data set [1], the “G. duodenalis SI” value is given as 22.7.
